The exact form of at least one protein or probe is not confirmed. Tags and fusion partners may be left off the protein sequences shown.
Molecular target: T1, SigH (Listeria monocytogenes EGD-e) (UniProt Q8YAA8)
T1 sequence (looked up, limits assumed): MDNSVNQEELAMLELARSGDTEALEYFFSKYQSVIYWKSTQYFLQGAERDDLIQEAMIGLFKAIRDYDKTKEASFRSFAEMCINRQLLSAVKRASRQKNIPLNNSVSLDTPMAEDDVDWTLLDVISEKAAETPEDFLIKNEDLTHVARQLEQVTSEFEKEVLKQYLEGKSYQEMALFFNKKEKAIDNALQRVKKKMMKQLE
Experiment: EMSA
Details: 5 mM MgCl2, 2.5 mM EDTA, 2.5 mM DTT, EMSA: 200 ng DNA, 50 mM Tris-HCl pH 8.0, 250 mM NaCl, 5 mM MgCl2, 2.5 mM DTT, 20% glycerol, 30 min, room temperature, native 5% PAGE, 0.5x TAE, recombinant protein, protein details: N-terminal His, label: none (ethidium bromide), probe letters rebuilt from the primers and the genome

Sequence | binding result
TTACCATGATTTAATTCACTCCTTATGACTTTTGTACACACAGTATAGCACCTAGACCTATTTGGAGCCATGTTTTTGCTCACTTGTTTACTTGAACTCAACGATGGTTACGCCGTTCCCGCCTTCTGCTGCTGCACCGAAACGAATCGATTTGACCATGCGATGATTTTTCAGATACTCTGTGACGCCAGTTCTAAGGGCACCAGTTCCTTTACCGTGAATAATGGCAACTTGAGGATATCCTGCGAGCAGTGCTTCATCCAAGTATTTGTCGACTTTTTGCAAAGCATCTTCGTAACGTTCGCCGCGCAAATCGAGTTCGCTTTTAGCTGGAGAACCACTACTATGAACCG (double strand) [PtrxA promoter fragment] | binds
AAGCTGCTGTCATTCCAGCAGGCCCCGCCCCAATAATAATCACATCATAAATTTTTTCTTCACTAGCCATTCTTTTTGCCCTCCTCGTTTATGTGTATACAATAGTTAGCCTAAATTAATCCTAATACGGAATAGCAAAAAGGTCTATTTATCTGCTCAGGACTCGCTCAATATCTCGCGCACATTTACTACATTCAAATTCTTCTACTAATTGAAGCTTCAAATGAGGTAAAAACAGCTTAGCAATTGCACTAGCCACAGTTTCTATCGTATAACGACCAAGTATTAAATCTTTCCCAGCATC (double strand) [PtrxB promoter fragment] | binds

From paper PMC5487381, “Thioredoxin A Is Essential for Motility and Contributes to Host Infection of Listeria monocytogenes via Redox Interactions” (Frontiers in Cellular and Infection Microbiology, 2017)
